## Potato spindle tuber viroid, stem 15: variant abundance in plants

The pool varies stem 15 of the PSTVd intermediate strain in the pattern CUGGAGCGAUNGNNUNNG; wild type is CUGGAGCGAUCGCUUCGG (upper and lower strand joined, each 5' to 3', the first 9 letters being the upper strand).

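Three N. benthamiana plants were inoculated with the whole mutant pool. Samples came from the inoculated region at 5 days, the leaf margin at 10 and upper systemic leaves at 12.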

Values are reads per thousand in the sample; higher means more abundant, 0 means not found. Each value is the mean of three plants. "Pool" is the share in the plasmid pool used as inoculum, on the same scale. The inoculated region was read from the minus strand, the other sites from the plus strand. IR is the inoculated region, LM the leaf margin, Sys the systemic leaves. The authors trace changes outside the varied positions to PCR and sequencing errors or to mutation in the plant; presence does not show that a variant is infectious alone. Wild type was 10.2 per thousand in the pool and the most common sequence in every sample (inoculated region 285, 367, 312; leaf margin 785, 865, 782; systemic leaves 854, 898, 915). With 36,693-63,082 reads a sample, very low values are single reads.

| sequence | pool | IR | LM | Sys |
|---|---|---|---|---|
| CUGGAGCGAUGGCUUUUG | 1.07 | 0.315 | 0.0435 | 0 |
| CUGGAGCGAUUGGAUCGG | 0.792 | 0.280 | 0.0616 | 0 |
| CUGGAGCGAUCGUCUAGG | 0.695 | 0.321 | 0 | 0 |
| CUGGAGCGAUCGCAUCUG | 0.986 | 0.388 | 0.216 | 0 |
| CUGGAGCGAUCGGAUGAG | 0.776 | 0.283 | 0.0318 | 0 |
| CUGGAGCGAUAGCAUUUG | 0.776 | 0.282 | 0.0488 | 0 |
| CUGGAGCGAUAGUGUUGC | 0.533 | 0.156 | 0 | 0 |
| CUGGAGCGAUAGUCUCUG | 0.970 | 0.254 | 0.0450 | 0 |
| CUGGAGCGAUAGUGUUUG | 1.45 | 1.09 | 0.0372 | 0.00664 |
| CUGGAGCGAUGAUUCAGC | 1.10 | 2.20 | 0.819 | 0.522 |
| CUAGAGCGAUGGGAUCAG | 0.0162 | 0.00698 | 0 | 0 |
| CUGGAGCGAUUGUGUUUG | 0.808 | 1.42 | 0.922 | 0 |
| CUGGAGCGAUCGCGUAAG | 0.743 | 0.287 | 0.0557 | 0 |
| CUGGAGCGAUGGGCUCCG | 0.792 | 0.350 | 0.0345 | 0 |
| CUGGAGCGAUCGUUUUGG | 0.760 | 1.23 | 0.0456 | 0 |
| CUGGAGCGAUGGAAUGUG | 0.921 | 0.208 | 0.0381 | 0 |
| CUGGAGCGAUGGGCUGAG | 0.598 | 0.283 | 0.0159 | 0 |
| CUGGAGCGAUCGCCUGUG | 1.08 | 0.331 | 0.0441 | 0 |
| CUGGAGCGAUGGUCUGGG | 1.21 | 1.03 | 0.0509 | 0.0960 |
| CUGGAGCGAUCGGGUUUG | 0.711 | 0.332 | 0.0244 | 0 |
| CUGGAGCGAUGGCGUCUG | 0.727 | 0.360 | 0.0372 | 0 |
| CUGGAGCGAUUGUCUGUG | 0.743 | 1.62 | 0.0482 | 0 |
| CUGGAGCGAUUGAGUUCG | 0.743 | 0.313 | 0.0345 | 0 |
| CUGGAGCGAUUGCUUCGG | 1.15 | 33.1 | 14.8 | 13.4 |
| CUGGAGCGAUCGACUGAG | 0.889 | 0.285 | 0.0363 | 0 |
| CUGGAGCGAUGGGAUUGG | 0.840 | 0.250 | 0.0320 | 0 |
| CUGGAGCGAUCGGGUCGG | 2.47 | 3.48 | 0.121 | 0.0925 |
| CUGGAGCGAUCGUUUCAG | 0.937 | 0.270 | 0.0160 | 0 |
| CUGGAGCGAUGGAAUUGG | 0.598 | 0.247 | 0.0260 | 0 |
| CUGGAGCGAUAGACUCCG | 0.840 | 0.220 | 0.0356 | 0.00664 |
| CUGGAGCGAUUGACUGUG | 0.679 | 0.295 | 0.106 | 0 |
| CUGGAGCGAUCGAUUGAG | 1.36 | 0.465 | 0.00908 | 0 |
| CUGGAGCGAUCGCGUACG | 0.873 | 0.196 | 0.0197 | 0 |
| CUGGAGCGAUUGGUUCCG | 0.743 | 0.269 | 0.0282 | 0 |
| CUGGAGCGAUUGCAUUGG | 1.03 | 0.661 | 0.00908 | 0.00664 |
| CUGGAGCGAUGGAAUACG | 0.760 | 0.268 | 0.0318 | 0 |
| CUGGAGCGAUUGAGUCCG | 0.954 | 0.324 | 0.0960 | 0 |
| CUGGAGCGAUGGAUUACG | 1.21 | 0.777 | 0.0541 | 0.00739 |
| CUGGAGCGAUCGGAUAGG | 0.824 | 0.302 | 0.0106 | 0 |
| CUGGAGCGAUUGGCUUGG | 1.37 | 1.78 | 0.660 | 0.503 |
| CUGGAGCGAUGGCAUGUG | 0.937 | 0.259 | 0.0441 | 0 |
| CUGGAGAGAUAGACUUGG | 0.0162 | 0 | 0 | 0 |
| CUGGAGCGAUGGAUUUUG | 1.47 | 0.778 | 0.0260 | 0 |
| CUGGAGCGAUAGUGUACG | 0.614 | 0.216 | 0.0144 | 0 |
| CUGGAGCGAUUGCGUACG | 0.663 | 0.333 | 0.0329 | 0 |
| CUGGAGCGAUAGCUUAGG | 0.679 | 0.339 | 0.0801 | 0 |
| CUGGAGCGAUGGGCUAAG | 0.921 | 0.294 | 0.0356 | 0 |
| CUGGAGCGAUAGUAUAAG | 0.921 | 0.274 | 0.0365 | 0 |
| CUGGAGCGAUCGCAUUAG | 0.889 | 0.307 | 0.0510 | 0 |
| CUGGAGCGAUUGAAUUGG | 0.857 | 0.293 | 0.0276 | 0 |

The first 6 entries again:

sequence	pool	IR	LM	Sys
CUGGAGCGAUGGCUUUUG	1.07	0.315	0.0435	0
CUGGAGCGAUUGGAUCGG	0.792	0.280	0.0616	0
CUGGAGCGAUCGUCUAGG	0.695	0.321	0	0
CUGGAGCGAUCGCAUCUG	0.986	0.388	0.216	0
CUGGAGCGAUCGGAUGAG	0.776	0.283	0.0318	0
CUGGAGCGAUAGCAUUUG	0.776	0.282	0.0488	0

Values reported by Wu et al. 2024 (doi:10.1371/journal.ppat.1012142).